A mixed list of measured activities; the numbers were collected in NIAID ChemDB.

Common to all: cytotoxicity tests; cell line: VERO; measure: CC50

Neighbouring rows are from separate reports. CCn: concentration that lowers growth or viability of the cells by n%.

{"smiles": "CCCCS(=O)(=O)Nc1cc2c(Cl)[nH]nc2cc1C", "value": ">170 µM"}
{"smiles": "COC1c2ccccc2C(=O)N1C(C)C1=NNC(=Nc2ccccc2)SC1", "value": "160 µg/mL"}
{"smiles": "CCCCOc1ccc2nccc(N/N=C/c3ccc(OC)c4ccccc34)c2c1", "value": "3.4 µg/mL"}
{"smiles": "COc1ccc(-c2c3nc(c(-c4ccc(OC)cc4)c4ccc([nH]4)c(-c4ccc(OC)cc4)c4nc(c(-c5ccc(OC)cc5)c5ccc2[nH]5)C=C4)C=C3)cc1", "value": ">200 µM"}
{"smiles": "Clc1ccc(/C(Cn2ccnc2)=N\\OCc2ccccc2)cc1", "value": "2 µg/mL"}
{"smiles": "Nc1ncnc2c1ncn2[C@H]1C[C@@]12C[C@@H]2CO", "value": ">100 µM"}
{"smiles": "c1ccc(/C(Cn2ccnc2)=N\\OCc2cccc3ccccc23)cc1", "value": "12 µg/mL"}
{"smiles": "CC1(C)CCc2c(ccc3oc4ccccc4c23)O1", "value": "100 µg/mL"}
{"smiles": "c1ccc(-c2ccc(CNc3ccc(N4CCOCC4)cc3)cc2)cc1", "value": "8 µg/mL"}
{"smiles": "Clc1ccc(/C(Cn2ccnc2)=N\\OCc2ccccc2)c(Cl)c1", "value": "32 µg/mL"}
{"smiles": "Nc1ccn([C@@H]2O[C@@H](CO)C=C2F)c(=O)n1", "value": ">100 µM"}
{"smiles": "Nc1ncnc2c1ncn2[C@H]1C[C@]12C[C@H]2CO", "value": ">100 µM"}
{"smiles": "CC1(C)C=Cc2cc(C(O)c3ccccc3)ccc2O1", "value": "16 µg/mL"}
{"smiles": "c1ccc(/C(Cn2ccnc2)=N\\OCc2ccc(-c3ccccc3)cc2)cc1", "value": "6 µg/mL"}
{"smiles": "Nc1nc(Cl)c2ncn([C@H]3O[C@@H](CO)C=C3F)c2n1", "value": ">100 µM"}
{"smiles": "Clc1ccc(CNc2ccccc2N2CCOCC2)cc1", "value": "4 µg/mL"}
{"smiles": "CC(C)O[C@@H]1[C@H](OC(C)C)[C@@H](COS(=O)(=O)NC(=O)O[C@H]2O[C@H](COCc3ccccc3)[C@H](OCc3ccccc3)[C@H](OCc3ccccc3)[C@H]2OCc2ccccc2)O[C@H]1n1ccc(=O)[nH]c1=O", "value": "220 µg/mL"}
{"smiles": "COc1cccc([C@H](c2cc3cc(C#N)ccc3nc2OC)[C@@](O)(CCN(C)C)c2cccc(C)n2)c1OC", "value": ">10 µg/mL"}
{"smiles": "CC(C)OC1[C@H](n2ccc(=O)[nH]c2=O)O[C@H](COS(=O)(=O)NC(=O)N[C@H]2O[C@H](COCc3ccccc3)[C@@H](OCc3ccccc3)[C@H](OCc3ccccc3)[C@H]2OCc2ccccc2)[C@H]1OC(C)C", "value": "200 µg/mL"}
{"smiles": "COc1cccc([C@H](c2cc3cc(Br)ccc3nc2OC)[C@@](O)(CCN(C)C)c2cnc(C)c(C)c2)c1F", "value": ">10 µg/mL"}
{"smiles": "CCNC(=S)Nc1ccc(-c2n[nH]c(=S)n2C)cc1", "value": "<0.303 µg/mL"}
{"smiles": "COc1cccc([C@H](c2cc3cc(Br)ccc3nc2OC)[C@@](O)(CCN(C)C)c2cncc(C)c2)c1F", "value": ">10 µg/mL"}
{"smiles": "Nc1ncnc2c1ncn2C1OC(CO)C=C1F", "value": ">100 µM"}
{"smiles": "CC(C)O[C@@H]1[C@H](OC(C)C)[C@@H](COS(=O)(=O)NC(=O)O[C@H]2C[C@@H](OC(=O)c3ccccc3)[C@H](OC(=O)c3ccccc3)[C@@H](COC(=O)c3ccccc3)O2)O[C@H]1n1ccc(=O)[nH]c1=O", "value": "100 µg/mL"}
{"smiles": "Nc1nc2c(ncn2COC(CO)CO)c(=O)[nH]1", "value": "500 µM"}
{"smiles": "COc1ccc(N=C2NN=C(C(C)N3C(=O)c4ccccc4C3=O)CS2)cc1", "value": "192 µg/mL"}
{"smiles": "COc1cccc([C@H](c2cc3cc(Br)ccc3nc2OC)[C@@](O)(CCN(C)C)c2cc(C)cnc2C)c1F", "value": ">10 µg/mL"}
{"smiles": "O=C(NS(=O)(=O)OCCOCn1ccc(=O)[nH]c1=O)O[C@H]1O[C@H](COCc2ccccc2)[C@@H](OCc2ccccc2)[C@H](OCc2ccccc2)[C@H]1OCc1ccccc1", "value": "75 µg/mL"}
{"smiles": "Oc1ccc2oc3ccc(O)cc3c2c1", "value": "16 µg/mL"}
{"smiles": "Nc1nc2c(ncn2[C@H]2O[C@@H](CO)C=C2F)c(=O)[nH]1", "value": ">100 µM"}
{"smiles": "CC(C1=NNC(=Nc2ccccc2F)SC1)N1C(=O)c2ccccc2C1=O", "value": "21.38 µg/mL"}
{"smiles": "COc1ccc2c(N/N=C/c3c(OC)ccc4ccccc34)ccnc2c1", "value": "73 µg/mL"}
{"smiles": "CN1CCN(c2ccccc2NCc2ccc(-c3ccccc3)cc2)CC1", "value": "4 µg/mL"}
{"smiles": "Cc1cc(NN)c2cc(C3CCCCC3)ccc2n1", "value": "5.31 µg/mL"}
{"smiles": "CC(C1=NNC(=NCc2ccc(Cl)cc2)SC1)N1C(=O)c2ccccc2C1=O", "value": "192 µg/mL"}
{"smiles": "O=C(NCc1ccc(Cl)cc1)c1c[nH]c2c(F)cccc2c1=O", "value": "90 µM"}
{"smiles": "Cc1cc(N/N=C/c2cc(C)n(-c3ccccc3)c2C)c2cc(C3CCCCC3)ccc2n1", "value": "6.6 µg/mL"}
{"smiles": "CC(=O)N(C1=NN=C(C(C)N2C(=O)c3ccccc3C2=O)CS1)c1ccccc1", "value": "111 µg/mL"}
{"smiles": "O=C(C/C=C/c1ccccc1)Nc1ccccc1N1CCSCC1", "value": "64 µg/mL"}
{"smiles": "CC(C1=NN=C(N(C(=O)c2ccccc2)c2ccccc2)SC1)N1C(=O)c2ccccc2C1=O", "value": "192 µg/mL"}
{"smiles": "Nc1ncnc2c1ncn2[C@H]1C[C@]12C[C@@H]2CO", "value": "89 µM"}
{"smiles": "CCCCCS(=O)(=O)Nc1ccc2n[nH]c(C(F)(F)F)c2c1", "value": "37 µM"}
{"smiles": "CC1(C)CCc2cc(C(=O)c3ccccc3)ccc2O1", "value": "75 µg/mL"}
{"smiles": "COc1ccc2c(N/N=C/c3c(OC)ccc4ccccc34)cc(C)nc2c1", "value": "23 µg/mL"}
{"smiles": "CN1CCN(c2cccc(NCc3ccc(-c4ccccc4)cc3)c2)CC1", "value": "1 µg/mL"}
{"smiles": "COc1ccc([C@](O)(CCN(C)C)[C@@H](c2cc3cc(Br)ccc3nc2OC)c2cccc(OC)c2F)cn1", "value": ">10 µg/mL"}
{"smiles": "Nc1ncnc2c1ncn2[C@H]1C[C@@]12C[C@H]2CO", "value": ">100 µM"}
{"smiles": "Nc1nc(=O)n([C@H]2O[C@@H](CO)C=C2F)cc1F", "value": ">100 µM"}
{"smiles": "COc1cccc([C@H](c2cc3cc(Br)ccc3nc2OC)[C@@](O)(CCN(C)C)c2cncc(C)c2)c1OC", "value": ">10 µg/mL"}
{"smiles": "Nc1nc2c(ncn2[C@H]2C[C@]23C[C@H]3CO)c(=O)[nH]1", "value": ">100 µM"}
{"smiles": "CC1(C)C=Cc2cc3oc4ccccc4c3c(Br)c2O1", "value": "10 µg/mL"}
{"smiles": "C(=C\\c1ccccc1)/CCNc1cccc(N2CCSCC2)c1", "value": "16 µg/mL"}
{"smiles": "Nc1nc(Cl)c2ncn([C@@H]3O[C@@H](CO)C=C3F)c2n1", "value": ">100 µM"}
{"smiles": "Fc1ccc(/C(Cn2ccnc2)=N/OCc2ccc(-c3ccccc3)cc2)cc1", "value": "1.5 µg/mL"}

5 of the rows above, restated:

smiles | value
COc1cccc([C@H](c2cc3cc(C#N)ccc3nc2OC)[C@@](O)(CCN(C)C)c2cccc(C)n2)c1OC | >10 µg/mL
O=C(NS(=O)(=O)OCCOCn1ccc(=O)[nH]c1=O)O[C@H]1O[C@H](COCc2ccccc2)[C@@H](OCc2ccccc2)[C@H](OCc2ccccc2)[C@H]1OCc1ccccc1 | 75 µg/mL
CC1(C)C=Cc2cc(C(O)c3ccccc3)ccc2O1 | 16 µg/mL
COc1cccc([C@H](c2cc3cc(Br)ccc3nc2OC)[C@@](O)(CCN(C)C)c2cncc(C)c2)c1F | >10 µg/mL
Fc1ccc(/C(Cn2ccnc2)=N/OCc2ccc(-c3ccccc3)cc2)cc1 | 1.5 µg/mL